Results of unrelated studies side by side (data: NIAID ChemDB).

Common to all: tests in culture; agent: Herpes simplex virus 1; read-out: EC50

ECn is the concentration giving n% inhibition of infection, replication or growth. Blank or dashed fields: not listed here. Lines come from different laboratories, so protocols vary.

smiles	strain or isolate	cell line	read by	result
CCCSc1nsc(-c2ccccc2)c1C#N	F	VERO	plaque count	>200 µg/mL
Cc1cccc2c1OP(=O)(OC[C@@H]1C=C[C@H](n3cnc4c(NC5CC5)nc(N)nc43)C1)OC2	KOS	E6SM	cytopathic effect	4.8 µg/mL
CCCCCCCC/C=C\CCCCCCCC(=O)OCC(O)CO	KOS	HeLa	cytopathic effect	>200 µg/mL
CSc1nsc(-c2ccccc2)c1C(=O)O	F	VERO	plaque count	>500 µg/mL
[N-]=[N+]=CC(=O)CC[C@H](N)C(=O)O	MacIntyre	VERO	plaque count	8 µM
O=C(O)CP(=O)(O)O	KOS	HEL	cytopathic effect	14.7 µg/mL
Nc1nc2c(ncn2[C@H]2C=C[C@@H](CO)C2)c(=O)[nH]1	KOS	E6SM	cytopathic effect	0.64 µg/mL
NNC(=O)c1ccncc1	KOS	HeLa	cytopathic effect	>200 µg/mL
N#CCSc1nsc(-c2ccccc2)c1C#N	F	VERO	plaque count	>10 µg/mL
COc1ccccc1N1CCN(CCCN2C(=O)CCC(c3ccccc3)C2=O)CC1	-	VERO 76	MTT	>100 µM
Cc1ccc(O)c(O)c1	-	VERO	cytopathic effect	>512 µg/mL
COC(=O)[C@H](C)NP(=O)(OC[C@H]1C/C1=C\n1cnc2c(N)nc(N)nc21)Oc1ccccc1	-	BSC-1	ELISA	>100 µM
Nc1ncc2c(ncn2COC(CO)CO)n1	KOS S2242-resistant	HEL	cytopathic effect	1.1 µg/mL
O=C(O)P(=O)(O)O	KOS	U87MG	cytopathic effect	25.8 µg/mL
CN1C(=O)C23CC4(C56CC78SSC(CO)(C(=O)N7C5Nc5ccccc56)N(C)C8=O)c5ccccc5NC4N2C(=O)C1(CO)SS3	KOS	HeLa	cytopathic effect	>200 µg/mL
Nc1ccn([C@@H]2C[C@H](CO)[C@@H](O)[C@H]2O)c(=O)n1	B2006 (TK-)	PRK	cytopathic effect	4 µg/mL
COC(=O)[C@H](C)NP(=O)(OC[C@H]1C/C1=C\n1cnc2c(=O)[nH]c(N)nc21)Oc1ccccc1	-	BSC-1	ELISA	>100 µM
CCC[C@@H]1C[C@@H](C(=O)N[C@@H]([C@H]2O[C@H](SC)[C@H](O)[C@@H](O)[C@H]2O)[C@H](C)Cl)N(C)C1	KOS	HeLa	cytopathic effect	>100 µg/mL
O=c1[nH]c(=O)n([C@H]2C[C@H](O)[C@@H](CO)O2)cc1/C=C/Br	KOS	PRK	cytopathic effect	0.04 µg/mL
CN[C@@H]1[C@@H](O)[C@@H](O[C@@H]2[C@@H](O)[C@H](O[C@H]3O[C@H]([C@H](C)N)[C@@H](O)[C@H](O)[C@H]3N)[C@@H](N)C[C@H]2N)OC[C@]1(C)O	KOS	HeLa	cytopathic effect	>100 µg/mL
CCCSc1nsc(-c2ccccc2)c1C(=O)O	F	VERO	plaque count	>500 µg/mL
Nc1ncnc2c1ncn2C[C@H](O)CO	F	PRK	cytopathic effect	>100 µg/mL
C[C@H](Oc1ccc(Cl)cc1)C(=O)O	TYLER	HeLa	plaque count	800 µM
Nc1nc2c(ncn2COC(CO)CO)c(=O)[nH]1	KOS ACV-resistant	HEL	cytopathic effect	7.23 µg/mL
O=C1CCC(c2ccccc2)C(=O)N1CCCCN1CCN(c2ccccc2)CC1	-	VERO 76	MTT	>100 µM
CO[C@@H]1[C@H](O)[C@@H](C)O[C@@H](OC[C@H]2[C@@H]3O[C@H]3/C=C/C(=O)[C@@](C)(O)C[C@H](C)[C@@H](O[C@@H]3O[C@H](C)C[C@H](OC)[C@H]3O)[C@@H](C)/C=C/C(=O)O[C@@H]2C)[C@@H]1OC	KOS	HeLa	cytopathic effect	>200 µg/mL
O=C(O)P(=O)(O)O	-	GMK	plaque count	12.13 µg/mL
Nc1nc(NC2CC2)c2ncn([C@H]3C=C[C@@H](COP4(=O)OCc5cc(Cl)ccc5O4)C3)c2n1	KOS	E6SM	cytopathic effect	24 µg/mL
Nc1nc2c(ncn2COCCO)c(=O)[nH]1	-	GMK	plaque count	0.2 µg/mL
COC(=O)[C@H](C)NP(=O)(OCC1C/C1=C\n1cnc2c(N)ncnc21)Oc1ccccc1	-	VERO	plaque count	>10 µM
O=c1[nH]c(=O)n([C@H]2C[C@H](O)[C@@H](CO)O2)cc1/C=C/Br	KOS HPMPA-resistant	HEL	cytopathic effect	0.005 µg/mL
O=C1CCC(c2ccccc2)C(=O)N1CCCN1CCN(c2ccccc2O)CC1	-	VERO 76	MTT	>100 µM
Nc1ncnc2c1ncn2[C@@H]1O[C@H](CO)C[C@@H]1O	KOS	U87MG	cytopathic effect	5.4 µg/mL
NCCOP(=O)(O)OC[C@H](O)CO	KOS	HeLa	cytopathic effect	>200 µg/mL
Cc1ccc2c(c1)COP(=O)(OCCOCn1cnc3c(=O)[nH]c(N)nc31)O2	KOS	E6SM	cytopathic effect	0.26 µg/mL
Oc1ccccc1O	-	VERO	cytopathic effect	>512 µg/mL
Nc1nc2c(ncn2COCCO)c(=O)[nH]1	TK-deficient acyclovir-resistant	E6SM	cytopathic effect	≥80 µg/mL
O=C1CCC(c2ccccc2)C(=O)N1CCCCN1CCN(Cc2ccccc2)CC1	-	VERO 76	MTT	>96 µM
N[C@H]1[C@@H](O[C@@H]2[C@@H](O)[C@H](O[C@H]3OC[C@@H](O)[C@H](O)[C@H]3N)[C@@H](N)C[C@H]2N)O[C@H](CO)[C@@H](O)[C@@H]1O	KOS	HeLa	cytopathic effect	>100 µg/mL
Nc1nc(=O)n([C@@H]2O[C@H](CO)[C@@H](O)[C@@H]2F)cc1I	KOS HPMPA-resistant	HEL	cytopathic effect	0.02 µg/mL
COC(=O)C1=CCCN(C)C1	KOS	HeLa	cytopathic effect	>200 µg/mL
N#Cc1c(SCCCBr)nsc1-c1ccccc1	F	VERO	plaque count	>25 µg/mL
O=C(O)P(=O)(O)O	KOS BVDU-resistant	HEL	cytopathic effect	35 µg/mL
N#Cc1c(N2CCCCC2)nsc1-c1ccccc1	F	VERO	plaque count	>25 µg/mL
COC(=O)[C@H](C)NP(=O)(OC[C@H]1C/C1=C/n1cnc2c(N)nc(N)nc21)Oc1ccccc1	-	HFF	plaque count	5.5 µM

4 of the rows above, restated:

{"smiles": "CCCCCCCC/C=C\\CCCCCCCC(=O)OCC(O)CO", "strain or isolate": "KOS", "cell line": "HeLa", "read by": "cytopathic effect", "result": ">200 µg/mL"}
{"smiles": "CCCSc1nsc(-c2ccccc2)c1C#N", "strain or isolate": "F", "cell line": "VERO", "read by": "plaque count", "result": ">200 µg/mL"}
{"smiles": "Oc1ccccc1O", "cell line": "VERO", "read by": "cytopathic effect", "result": ">512 µg/mL"}
{"smiles": "C[C@H](Oc1ccc(Cl)cc1)C(=O)O", "strain or isolate": "TYLER", "cell line": "HeLa", "read by": "plaque count", "result": "800 µM"}